# Reference: patent US11013249B2, “Compositions for controlled release of volatile compounds” (University of Guelph, priority 2016, dated 2021)
# Tested on: mung bean sprouts
# Experiment: Mung bean sprouts sealed in 1 L glass jars with antimicrobial compounds at 4° C.
# Design: species or system Mung bean (Vigna radiata)
# Conditions: low concentration: AITC <1.5 mg/L, diacetyl <8 mg/L
structure (smiles),measurement,value
"CC(=O)C(C)=O [Diacetyl, 2,3-butanedione]",respiration rates of the sprouts,higher than the untreated control
